Results taken from publication PMC5107951 (Scientific Reports, 2016).

Sequences of proteins named here, by UniProt entry; tags and fusion partners are left off. Residues count along the entry.
UniProt P36544, 23-502 limits assumed: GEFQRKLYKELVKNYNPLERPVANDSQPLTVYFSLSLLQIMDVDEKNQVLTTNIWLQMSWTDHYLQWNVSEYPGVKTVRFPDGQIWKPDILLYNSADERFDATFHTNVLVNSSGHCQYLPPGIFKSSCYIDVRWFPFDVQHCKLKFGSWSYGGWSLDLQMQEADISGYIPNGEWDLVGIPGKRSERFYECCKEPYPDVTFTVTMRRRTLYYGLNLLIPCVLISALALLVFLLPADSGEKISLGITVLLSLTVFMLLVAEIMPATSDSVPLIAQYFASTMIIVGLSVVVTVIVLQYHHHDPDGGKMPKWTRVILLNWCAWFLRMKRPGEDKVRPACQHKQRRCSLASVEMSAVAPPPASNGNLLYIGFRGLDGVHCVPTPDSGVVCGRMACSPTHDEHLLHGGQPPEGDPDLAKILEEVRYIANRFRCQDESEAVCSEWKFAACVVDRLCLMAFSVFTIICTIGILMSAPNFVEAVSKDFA
UniProt Q8WSF8, 18-236 limits assumed: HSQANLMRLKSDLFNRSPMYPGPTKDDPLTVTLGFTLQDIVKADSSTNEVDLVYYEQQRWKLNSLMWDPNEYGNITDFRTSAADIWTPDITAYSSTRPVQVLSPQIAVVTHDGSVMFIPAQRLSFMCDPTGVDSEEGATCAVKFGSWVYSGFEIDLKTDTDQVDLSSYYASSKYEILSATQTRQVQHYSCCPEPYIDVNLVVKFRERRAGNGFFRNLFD
UniProt P58154, 20-229 limits assumed: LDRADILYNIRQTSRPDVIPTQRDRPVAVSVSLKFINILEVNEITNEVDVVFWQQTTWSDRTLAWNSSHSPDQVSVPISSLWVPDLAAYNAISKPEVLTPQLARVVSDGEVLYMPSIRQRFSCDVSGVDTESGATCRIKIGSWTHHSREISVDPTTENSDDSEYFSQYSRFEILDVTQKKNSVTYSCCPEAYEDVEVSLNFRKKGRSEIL

Tests used:
α7 nAChR = α7 nAChR (Homo sapiens, UniProt P36544); test: Radioligand competition with [125I]-labeled αBgt, α7 nAChR in GH4C1 cells; conditions: read-out: IC50 in competition with [125I]-labeled αBgt for α7 nAChR, 0.4 nM toxin-binding sites, pre-incubated 2.5 h at room temperature, pH 8.0, 0.2 nM [125I]-αBgt for 5 min, mean ± s.e.m., two independent experiments
[1] = biological target: Ac-AChBP (Aplysia californica acetylcholine-binding protein) (Aplysia californica, UniProt Q8WSF8); test: Radioligand competition with [125I]-labeled αBgt, Ac-AChBP; conditions: read-out: IC50 in competition with [125I]-labeled αBgt for Ac-AChBP; 140 nM Ac-AChBP; pre-incubated 2.5 h at room temperature, 20 mM Tris–HCl pH 8.0, 1 mg/mL BSA; 0.2 nM [125I]-αBgt for 5 min; two independent experiments
[2] = biological target: Ls-AChBP (Lymnaea stagnalis acetylcholine-binding protein) (Lymnaea stagnalis, UniProt P58154); test: Radioligand competition with [125I]-labeled αBgt, Ls-AChBP; conditions: read-out: IC50 in competition with [125I]-labeled αBgt for Ls-AChBP; 2.4 nM Ls-AChBP; pre-incubated 2.5 h at room temperature, 20 mM Tris–HCl pH 8.0, 1 mg/mL BSA; 0.2 nM [125I]-αBgt for 5 min; two independent experiments

Row | Structure (SMILES) | IC50 (α7 nAChR) [µM] | IC50 [1] [µM] | IC50 [2] [µM]
1 | CC(C)C[C@@H]1NC(=O)[C@H](CCCNC(=N)N)NC(=O)[C@@H]2CSSC[C@H](NC(=O)CN)C(=O)N[C@@H](CSSC[C@@H](C(N)=O)NC(=O)[C@H](Cc3ccc(O)cc3)NC(=O)[C@H](CCCNC(=N)N)NC(=O)[C@@H]3CCCN3C(=O)[C@H](CC(N)=O)NC(=O)[C@H](CC(N)=O)NC1=O)C(=O)N[C@@H](CO)C(=O)N[C@@H](CCCNC(=N)N)C(=O)N1CCC[C@H]1C(=O)N1CCC[C@H]1C(=O)N2 [PnIA[R5, R9, L10, R14]] | 0.86 | 0.024 | 0.00122
2 | CC(C)C[C@@H]1NC(=O)[C@H](CCCNC(=N)N)NC(=O)[C@@H]2CSSC[C@H](NC(=O)CN)C(=O)N[C@@H](CSSC[C@@H](C(N)=O)NC(=O)[C@H](Cc3ccc(O)cc3)NC(=O)[C@H](CC(=O)O)NC(=O)[C@@H]3CCCN3C(=O)[C@H](CC(N)=O)NC(=O)[C@H](CC(N)=O)NC1=O)C(=O)N[C@@H](CO)C(=O)N[C@@H](CC(C)C)C(=O)N1CCC[C@H]1C(=O)N1CCC[C@H]1C(=O)N2 [PnIA[R9, L10]] | 0.27 | 0.047 | 0.018
3 | CC(C)C[C@@H]1NC(=O)[C@H](CO)NC(=O)[C@@H]2CSSC[C@@H](C(N)=O)NC(=O)[C@H](Cc3ccc(O)cc3)NC(=O)[C@H](CC(=O)O)NC(=O)[C@@H]3CCCN3C(=O)[C@H](CC(N)=O)NC(=O)[C@H](CC(N)=O)NC(=O)[C@H](C)NC(=O)[C@H](CCCNC(=N)N)NC(=O)[C@H](CSSC[C@H](NC(=O)CN)C(=O)N2)NC(=O)[C@@H]2CCCN2C(=O)[C@@H]2CCCN2C1=O [PnIA[R9]] | 2.4 | 0.041 | 0.058
